Test results reported in US5362412A, “Biodegradable bleach stabilizers for detergents” (priority 1991, dated 1994).

Tested on: microorganisms of sludge
Experiment: Biodegradability, Sturm CO2 Evolution Test
Details: typically 26-30 days

| SMILES | % of Theoret. CO2 (acclimated microorganisms) [%] | % of Theoret. CO2 (unacclimated sludge) [%] |
| --- | --- | --- |
| O=C(O)CC(C(=O)O)N(CC(=O)O)CC(=O)O (stereo not drawn) [AspDA, Aspartic acidN,N-diacetic acid] | 84 |  |
| O=C(O)CNC(CC(=O)O)C(=O)O (stereo not drawn) [AspMA, Aspartic acidN-monoacetic acid] |  | 78 |
| O=C(O)CCN(CC(=O)O)CC(=O)O [BADA] |  | 73 |
| O=C(O)CSC(CC(=O)O)C(=O)O (stereo not drawn) [CMMS, Carboxymethylmercaptosuccinic acid] |  | 85 |
| O=C(O)CC(NC(CC(=O)O)C(=O)O)C(=O)O (stereo not drawn) [ISA, Iminodisuccinic acid] |  | 76 |
| O=C(O)CN(CC(=O)O)CC(=O)O [NTA, Nitrilotriacetic acid, reference compound] |  | 73 |
